Reference: article PMC9065038 (Scientific Reports, 2022)

Sequences of proteins named here, by UniProt entry; tags and fusion partners are left off. A change or cut given only in a name is not applied to a line headed by its entry.
UniProt P41146: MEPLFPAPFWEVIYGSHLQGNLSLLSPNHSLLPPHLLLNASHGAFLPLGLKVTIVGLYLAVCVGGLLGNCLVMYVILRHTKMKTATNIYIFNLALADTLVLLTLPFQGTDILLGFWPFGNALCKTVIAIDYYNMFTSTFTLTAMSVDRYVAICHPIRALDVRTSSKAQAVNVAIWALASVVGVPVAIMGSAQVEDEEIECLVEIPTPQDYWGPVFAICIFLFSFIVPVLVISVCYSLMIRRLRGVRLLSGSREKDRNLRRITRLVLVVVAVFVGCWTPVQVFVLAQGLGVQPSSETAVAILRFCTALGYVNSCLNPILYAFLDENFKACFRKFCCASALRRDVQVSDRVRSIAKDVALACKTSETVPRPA
UniProt P35372, whole entry, looked up: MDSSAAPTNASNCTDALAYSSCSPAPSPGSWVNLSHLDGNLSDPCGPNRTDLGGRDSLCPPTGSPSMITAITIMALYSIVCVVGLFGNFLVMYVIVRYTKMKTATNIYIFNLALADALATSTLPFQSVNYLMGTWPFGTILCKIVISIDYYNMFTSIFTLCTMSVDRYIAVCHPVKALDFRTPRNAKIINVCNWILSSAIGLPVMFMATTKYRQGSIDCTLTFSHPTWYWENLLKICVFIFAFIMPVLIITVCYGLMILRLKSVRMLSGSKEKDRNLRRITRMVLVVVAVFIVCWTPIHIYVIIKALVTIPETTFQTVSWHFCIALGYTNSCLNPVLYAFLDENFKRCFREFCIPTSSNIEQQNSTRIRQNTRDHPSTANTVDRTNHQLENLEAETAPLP
UniProt P41145: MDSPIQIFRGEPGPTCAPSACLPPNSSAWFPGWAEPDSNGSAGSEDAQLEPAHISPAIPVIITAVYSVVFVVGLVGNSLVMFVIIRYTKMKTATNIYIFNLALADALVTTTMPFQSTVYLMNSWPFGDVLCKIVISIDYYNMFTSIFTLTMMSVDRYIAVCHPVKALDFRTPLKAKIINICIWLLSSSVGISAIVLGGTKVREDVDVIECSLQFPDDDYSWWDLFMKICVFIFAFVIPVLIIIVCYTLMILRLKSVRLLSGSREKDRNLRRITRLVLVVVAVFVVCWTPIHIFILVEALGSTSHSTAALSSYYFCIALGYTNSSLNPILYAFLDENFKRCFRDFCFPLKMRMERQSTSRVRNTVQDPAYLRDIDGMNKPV

How the values were obtained:
[1] = supra-analgesic doses, nonhuman primates; cited from earlier work
human NOP [2] = biological target: T1, human NOP (Homo sapiens, UniProt P41146); assay: GIRK channel-based fluorescent membrane potential assay in AtT-20 cells; conditions: for agonist efficacy at NOP in GIRK assay (in words): compared to N/OFQ; for GIRK NOP Emax: normalized to 1 µM N/OFQ set at 100%; for EC50: read-out: GIRK NOP EC50, stably transfected AtT-20 cells
human MOP [3] = biological target: T2, human MOP (Homo sapiens, UniProt P35372); assay: as above; conditions: for agonist efficacy at MOP in GIRK assay (in words): compared to DAMGO; for GIRK MOP Emax: normalized to 1 µM DAMGO set at 100%; for EC50: read-out: GIRK MOP EC50, stably transfected AtT-20 cells
KOP = KOP (Homo sapiens, UniProt P41145); assay: Radioligand displacement binding in CHO cells stably expressing KOP; conditions: read-out: Radioligand Displacement Ki, KOP
human MOP [4] = biological target: T2, human MOP; assay: Radioligand displacement competition binding, [3H]DAMGO, CHO cell membranes; conditions: read-out: Radioligand Displacement Ki, MOP, CHO cells stably expressing MOP
human NOP [5] = biological target: T1, human NOP; assay: [35S]GTPγS binding assay, CHO cell membranes; conditions: for [35S]GTPγS NOP % Stim: % stimulation normalized to N/OFQ set at 100%; for EC50: read-out: [35S]GTPγS NOP EC50, stably transfected CHO cells; for agonist efficacy at NOP in [35S]GTPγS binding (in words): relative to N/OFQ
human MOP [6] = biological target: T2, human MOP; assay: [35S]GTPγS binding assay, CHO cell membranes; conditions: for [35S]GTPγS MOP % Stim: % stimulation normalized to DAMGO set at 100%; for EC50: read-out: [35S]GTPγS MOP EC50, stably transfected CHO cells; for agonist efficacy at MOP in [35S]GTPγS binding (in words): relative to DAMGO
human NOP [7] = biological target: T1, human NOP; assay: Radioligand displacement competition binding, [3H]N/OFQ, CHO cell membranes; conditions: for affinity at NOP (in words): radioligand displacement; for Ki: read-out: Radioligand Displacement Ki, NOP, CHO cells stably expressing NOP, [3H]N/OFQ
[8] = biological target: NOP receptor (S346, S351, T362/S363) (Homo sapiens, UniProt P41146); assay: Agonist-induced receptor phosphorylation, Western blot with phosphosite-specific antibodies, HEK293 cells; conditions: 10^-5 to 10^-9 M
[9] = biological target: MOP receptor (T370, S375, T376, T379) (Homo sapiens, UniProt P35372); assay: as above; conditions: 10^-5 to 10^-9 M, sites T370, S375, T376, T379, listed as cebranopadol

CC(C)[C@H]1CC[C@@H](N2CCC3(CC2)C(=O)N(CCNS(N)(=O)=O)Cc2ccccc23)CC1 [AT-121]
respiratory or cardiovascular functions [1]: did not compromise respiratory or cardiovascular functions | agonist efficacy at NOP in GIRK assay (in words) (human NOP [2]): partial agonist efficacy | GIRK NOP Emax (human NOP [2]): 69.7% | EC50 (human NOP [2]): 6.1 nM | agonist efficacy at MOP in GIRK assay (in words) (human MOP [3]): lowest Emax | GIRK MOP Emax (human MOP [3]): 66.7% | EC50 (human MOP [3]): 27.8 nM | Ki (KOP): 40.8 nM | Ki (human MOP [4]): 14.2 nM | [35S]GTPγS NOP % Stim (human NOP [5]): 41.1 ± 0.3% | EC50 (human NOP [5]): 34.7 nM | agonist efficacy at NOP in [35S]GTPγS binding (in words) (human NOP [5]): partial agonist efficacy | [35S]GTPγS MOP % Stim (human MOP [6]): 14.2 ± 0.4% | EC50 (human MOP [6]): 19.6 nM | affinity at NOP (in words) (human NOP [7]): high affinity | Ki (human NOP [7]): 3.67 nM

CCC1C(=O)N(C2CCN(CCC(c3ccccc3)c3ccccc3)CC2)c2ccccc21 (centres unmarked) [AT-034]
agonist efficacy at NOP in GIRK assay (in words) (human NOP [2]): partial agonist efficacy | EC50 (human NOP [2]): 174 nM | agonist efficacy at MOP in GIRK assay (in words) (human MOP [3]): high agonist efficacy | EC50 (human MOP [3]): 23.6 nM | Ki (KOP): 88.4 nM | Ki (human MOP [4]): 1.97 nM | EC50 (human NOP [5]): 124 nM | agonist efficacy at NOP in [35S]GTPγS binding (in words) (human NOP [5]): high intrinsic activity | EC50 (human MOP [6]): 39.5 nM | agonist efficacy at MOP in [35S]GTPγS binding (in words) (human MOP [6]): full intrinsic activity | affinity at NOP (in words) (human NOP [7]): moderate affinity | Ki (human NOP [7]): 76.6 nM

CN(C)[C@]1(c2ccccc2)CC[C@]2(CC1)OCCc1c3cc(F)ccc3[nH]c12
agonist-induced NOP phosphorylation (in words) ([8]; sites S346, S351, T362/S363): weak NOP phosphorylation at S346 | agonist-induced NOP phosphorylation (in words) ([8]; sites S346, S351, T362/S363, listed as cebranopadol): failed to elicit phosphorylation at NOP, except for very weak phosphorylation at the primary site S346 | agonist-induced MOP phosphorylation (in words) [9]: robust phosphorylation at T370, S375, T376 and moderate phosphorylation at T379 | agonist efficacy at NOP in GIRK assay (in words) (human NOP [2]): partial agonist efficacy | GIRK NOP Emax (human NOP [2]): 50% | EC50 (human NOP [2]): 71.9 nM | agonist efficacy at MOP in GIRK assay (in words) (human MOP [3]): superagonist activity | GIRK MOP Emax (human MOP [3]): 127% | EC50 (human MOP [3]): 58.9 nM | [35S]GTPγS NOP % Stim (human NOP [5]): 86.40 ± 5.34% | agonist efficacy at NOP in [35S]GTPγS binding (in words) (human NOP [5]): high intrinsic activity | [35S]GTPγS MOP % Stim (human MOP [6]): 100.40 ± 0.58% | agonist efficacy at MOP in [35S]GTPγS binding (in words) (human MOP [6]): full intrinsic activity | affinity at NOP (in words) (human NOP [7]): high affinity

CC(C)[C@H]1CC[C@@H](N2CCC3(CC2)C(=O)N(CCNS(N)(=O)=O)CN3c2ccccc2)CC1
agonist-induced NOP phosphorylation (in words) ([8]; sites S346, S351, T362/S363): no phosphorylation of NOP at any of the tested sites | agonist efficacy at NOP in GIRK assay (in words) (human NOP [2]): full intrinsic activity | GIRK NOP Emax (human NOP [2]): 101.0% | EC50 (human NOP [2]): 0.6 nM | agonist efficacy at MOP in GIRK assay (in words) (human MOP [3]): high agonist efficacy | GIRK MOP Emax (human MOP [3]): 83.1% | EC50 (human MOP [3]): 1.2 nM | Ki (KOP): 22.8 nM | Ki (human MOP [4]): 1.46 nM | [35S]GTPγS NOP % Stim (human NOP [5]): 101 ± 0.7% | EC50 (human NOP [5]): 12.2 nM | agonist efficacy at NOP in [35S]GTPγS binding (in words) (human NOP [5]): full intrinsic activity | [35S]GTPγS MOP % Stim (human MOP [6]): 35.1 ± 6.5% | EC50 (human MOP [6]): 20.9 nM | agonist efficacy at MOP in [35S]GTPγS binding (in words) (human MOP [6]): partial agonist efficacy | affinity at NOP (in words) (human NOP [7]): high affinity | Ki (human NOP [7]): 1.28 nM
